Measured values from several laboratories, pooled; numbers as filed in NIAID ChemDB.

Common to all: whole-cell or culture tests; agent: Mycobacterium tuberculosis

Conditions beyond the fields shown may differ between rows. Percent inhibition refers to the dose given; in toxicity tests it is the harm to the cells. An empty or dashed field is not shown. ECn: concentration that inhibits the pathogen or its effect by n%. MIC bound comes from a single tested concentration.

| compound | strain | method | read-out | tested at | value |
|---|---|---|---|---|---|
| COc1ccc(C2CC(=O)c3c(OC)cc(OC)cc3O2)cc1 |  |  | EC50 |  | >12.5 µg/mL |
| CCC(C)(C)c1ccc(C(=O)N(Cc2ccccc2)c2ccccc2O)cc1Oc1ccccc1 | H37Rv |  | MIC |  | >100 µg/mL |
| NNC(=O)c1cccc2ccccc12 | H37Rv | BACTEC | inhibition | 12.5 µg/mL | 10% |
| Nc1nccc(Nc2ccc(-c3ccccc3)cc2)n1 | H37Rv |  | MIC |  | 100 µg/mL |
| COc1ccc(N=Nc2sc(N)nc2-c2ccccc2)cc1 | H37Rv | BACTEC | MIC bound |  | >6.25 µg/mL |
| CO[C@H]1/C=C/O[C@@]2(C)Oc3c(C)c(O)c4c(O)c(c(/C=N/N5CCN(C/C=C/c6ccccc6)CC5)c(O)c4c3C2=O)NC(=O)/C(C)=C\C=C\[C@H](C)[C@H](O)[C@@H](C)[C@@H](O)[C@@H](C)[C@H](OC(C)=O)[C@@H]1C | 2227 (rifampin-resistant) |  | MBC |  | 0.4 µg/mL |
| COC(=S)SSC(=S)NCCNC(=S)SSC(=S)OC | H37Rv | BACTEC | MIC bound |  | ≤12.5 µg/mL |
| COc1ccc(/C=C/C(=O)c2ccccn2)cc1 |  |  | inhibition | 12.5 µg/mL | 0% |
| CCOc1ccc(/C=N/NC(=O)c2cccc3ccccc23)cc1OCC | H37Rv | BACTEC | MIC bound |  | >12.5 µg/mL |
| N#Cc1ccc(N)cc1 | H37Rv |  | MIC |  | >100 µg/mL |
| Clc1ccc(CCNCCNCCCc2ccccc2)c(Cl)c1 |  |  | MIC |  | 25 µM |
| Cc1ccc(NNc2cc(=O)[nH]c(=O)[nH]2)cc1Cl | H37Rv | resazurin | MIC |  | 3.13 µg/mL |
| CCCCC(CC)CN1CN(CC(CC)CCCC)CC(C)(NCCNCCc2ccc(O)cc2)C1 |  |  | MIC |  | 25 µM |
| N#Cc1c(N)nc2c3c1NC(=O)C(C(N)=O)C3c1ccccc1O2 | H37Rv | resazurin | inhibition | 6.25 µg/mL | 16% |
| COc1ccc(C2Oc3ccc(C(=O)O)cc3C(=O)C2O)cc1 | H37Rv |  | EC50 |  | >12.5 µg/mL |
| CCCCCCCCCCCCCCNC1=C(Cl)C(=O)c2ccccc2C1=O | H37Rv | BACTEC | MIC bound |  | >12.5 µg/mL |
| CCN(CC)C(=S)SSC(=S)N(CC)CC | H37Rv |  | MIC |  | >100 µg/mL |
| O=C1N[C@H](CO)C(=O)N[C@H]1CO | H37Rv | BACTEC | inhibition | 12.5 µg/mL | -4% |
| CCCCCCCCCCCNCCNCc1cc(OC)c(OC)c(OC)c1 |  |  | MIC |  | 50 µM |
| Cc1cc(C2(c3cc(C)c(O)cc3C)OS(=O)(=O)c3ccccc32)c(C)cc1O | H37Rv | BACTEC | inhibition | 12.5 µg/mL | 0% |
| CC(=O)N/C(=C/c1ccc(O)cc1)C(=O)O | H37Rv |  | MIC |  | >100 µg/mL |
| OCCNCCNCCC(c1ccccc1)c1ccccc1 |  |  | MIC |  | 50 µM |
| O=C1c2ccccc2OC(c2ccccc2)C1(Br)Br |  |  | inhibition | 12.5 µg/mL | 0% |
| CC(C)CC(C)NCCNC[C@]1(C)CCC[C@]2(C)c3ccc(C(C)C)cc3CC[C@@H]12 |  |  | MIC |  | 25 µM |
| C=CCc1cccc(C(=O)O)c1O | H37Rv |  | MIC |  | >100 µg/mL |
| CCO/C=C1\N=C(c2ccc(OC)c(OC)c2)OC1=O | H37Rv | BACTEC | inhibition | 12.5 µg/mL | 13% |
| CCC(CO)NCCNCCCc1ccccc1 |  |  | MIC |  | 9.4 µM |
| COc1ccccc1CCNCCN[C@@H]1C[C@@H]2C[C@H]([C@H]1C)C2(C)C |  |  | MIC |  | 25 µM |
| COc1ccc(CNCCNCCCc2ccccc2)c(OC)c1 |  |  | MIC |  | 25 µM |
| CC(O)C(C)(C)C(O)C(=O)NCCC(=O)O | H37Rv |  | MIC |  | >100 µg/mL |
| COc1ccc(C(=O)/C=C/c2cccc(I)c2)c(O)c1 | H37Rv |  | EC50 |  | >12.5 µg/mL |
| C[N+]12CCCc3cc(CO)cc(c31)CCC2.[I-] | H37Rv | BACTEC | MIC bound |  | >12.5 µg/mL |
| CC(=O)c1ccc(Cl)cc1 | H37Rv |  | MIC |  | >100 µg/mL |
| O=C1C(=O)c2ccccc2C(O)=C1C(/C=C/c1ccccc1)C1=C(O)c2ccccc2C(=O)C1=O | H37Rv | BACTEC | MIC bound |  | >12.8 µg/mL |
| CC(NC(=S)NC(C)c1ccccc1)c1ccccc1 | H37Rv |  | MIC |  | >100 µg/mL |
| CO[C@H]1/C=C/O[C@@]2(C)Oc3c(C)c(O)c4c(=O)c(c5oc6cc(N7CCN(C(C)C)CC7)cc(=O)c6nc5c4c3=C2O)NC(=O)/C(C)=C\C=C\[C@H](C)[C@H](O)[C@@H](C)[C@@H](O)[C@@H](C)[C@H](OC(C)=O)[C@@H]1C | 2983 (rifampin-sensitive) |  | MBC |  | 0.012 µg/mL |
| O=P(O)(O)c1ccccc1 | H37Rv |  | MIC |  | >100 µg/mL |
| CCCCC(CC)CN1CN(CC(CC)CCCC)CC(C)(NCCNCCO)C1 |  |  | MIC |  | 12.5 µM |
| COc1ccc(CSC(=S)Nc2ccc(Cl)c([N+](=O)[O-])c2)cc1 | H37Rv | BACTEC | MIC bound |  | ≤128 µg/mL |
| CCOC(=O)c1csc(CCCOc2ccccc2)c1NC(=O)c1ccccc1 | H37Rv |  | MIC |  | >100 µg/mL |
| CC(C)=CCC/C(C)=C/CNCCNCc1cccc(C)c1 |  |  | MIC |  | 50 µM |
| O=C1C[C@@H](c2ccc(O)cc2)Oc2c1c(O)cc(O[C@@H]1O[C@H](CO)[C@@H](O)[C@H](O)[C@H]1O)c2[C@H]1C(=O)c2c(O)cc(O)cc2O[C@@H]1c1ccc(O)cc1 | H37Rv |  | EC50 |  | >12.5 µg/mL |
| c1ccc(C(NCCNC2CCCCCCC2)c2ccccc2)cc1 |  |  | MIC |  | 12.5 µM |
| Cc1cccc(N=Nc2c(-c3ccccc3)nn(C(=S)S)c2C)c1C | H37Rv | BACTEC | MIC bound |  | ≤128 µg/mL |
| CCCCCCCCCCN1c2ccccc2S(=O)c2cc([N+](=O)[O-])ccc21 | H37Rv |  | MIC |  | >100 µg/mL |
| Cc1ccc(NC(=O)Nc2cccc3ccccc23)cc1Cl | H37Rv | BACTEC | inhibition | 12.5 µg/mL | 0% |
| CCCCCCCCCCCCS | H37Rv |  | MIC |  | >100 µg/mL |
| O=C1NC(=C(c2ccccc2)c2ccccc2)OC1=O | H37Rv | BACTEC | MIC bound |  | >12.5 µg/mL |
| O=C(O)c1ccccc1C(=O)c1ccc2ccc(Cl)cc2c1 | H37Rv |  | MIC |  | >100 µg/mL |
| CCCCCCCCCCCCCCCCSC1=C(C)C(=O)C(OC)=C(OC)C1=O | H37Rv | resazurin | inhibition | 6.25 µg/mL | 18% |
| CCSCCC(N)C(=O)O | H37Rv |  | MIC |  | >100 µg/mL |
| O=C1C[C@@H](c2ccccc2)NCCCCN(O)CCCN1 | H37Rv | BACTEC | MIC bound |  | >12.5 µg/mL |
| COc1cccc2ccccc12 | H37Rv |  | MIC |  | >100 µg/mL |
| CC(C)c1ccc2c(c1)CC[C@H]1[C@](C)(CNCCNC3CCCc4ccccc43)CCC[C@]21C |  |  | MIC |  | 25 µM |
| COc1ccc2ccccc2c1C(C)=O | H37Rv |  | MIC |  | 100 µg/mL |
| Fc1ccc(CCNCCNCCCCc2ccccc2)cc1 |  |  | MIC |  | 25 µM |
| Cc1cncc(O)c1 | H37Rv |  | MIC |  | >100 µg/mL |
| CCCCCCCCCCCNCCN[C@H]1C[C@H]2C[C@@H]([C@@H]1C)C2(C)C |  |  | MIC |  | 50 µM |
| Cc1cc(N(CC(N)=O)CC2CCCO2)ccc1N | H37Rv |  | MIC |  | 50 µg/mL |
| COc1ccc(OC)c(CCNCCNC/C=C(\C)CCC=C(C)C)c1 |  |  | MIC |  | 50 µM |
| O=[N+]([O-])c1ccc(N=Nc2c(Cl)c(O)c3ccccc3c2O)nc1 | H37Rv |  | MIC |  | >12.5 µg/mL |
| CCOC(=O)c1ccccc1O | H37Rv |  | MIC |  | >100 µg/mL |

Repeating the final 8 entries:

compound	strain	method	read-out	tested at	value
COc1ccc2ccccc2c1C(C)=O	H37Rv		MIC		100 µg/mL
Fc1ccc(CCNCCNCCCCc2ccccc2)cc1			MIC		25 µM
Cc1cncc(O)c1	H37Rv		MIC		>100 µg/mL
CCCCCCCCCCCNCCN[C@H]1C[C@H]2C[C@@H]([C@@H]1C)C2(C)C			MIC		50 µM
Cc1cc(N(CC(N)=O)CC2CCCO2)ccc1N	H37Rv		MIC		50 µg/mL
COc1ccc(OC)c(CCNCCNC/C=C(\C)CCC=C(C)C)c1			MIC		50 µM
O=[N+]([O-])c1ccc(N=Nc2c(Cl)c(O)c3ccccc3c2O)nc1	H37Rv		MIC		>12.5 µg/mL
CCOC(=O)c1ccccc1O	H37Rv		MIC		>100 µg/mL